For assay [1], the target named is Rat α4β2 nAChR (rat), P09483. Briefly: cell-based or functional assay.
Assay [2] deals with Rat α2β2 nAChR (rat), P12389. Put plainly: cell-based or functional assay.
The target in assay [3] is Rat α7 nAChR (rat), Q05941. Put plainly: cell-based or functional assay.
The target of assay [4] is Rat α2β4 nAChR (rat), P12389. Briefly: cell-based or functional assay.
Assay [5] addresses Rat α4β4 nAChR (rat), P09483. Put plainly: cell-based or functional assay.
Assay [6] has as its target Mouse CNS α-MII site (native [125I]α-conotoxin MII-binding nAChRs in mouse brain homogenates) (mouse), Q9R0W9.
Assay [7] addresses Rat α3β2 nAChR (rat), P04757. Put plainly: cell-based or functional assay.
In assay [8] the target is Rat α6/α3β2β3 nAChR (rat), P43143. Briefly: cell-based or functional assay.
Assay [9] has as its target Rat α6/α3β4 nAChR (rat), P43143. Briefly: cell-based or functional assay.
In assay [10] the target is Rat α3β4 nAChR (rat), P04757. Put plainly: cell-based or functional assay.
Assay [11] concerns the target Rat α6/α3β2 nAChR (rat), P43143. Put plainly: cell-based or functional assay.

A word on the Ki: it is a measure of affinity in units of concentration, obtained from inhibition or displacement. Lower therefore signals a stronger hold on the target.

For the molecule GCCSNPVCALEHSNAC (modifications not checked) [α-Conotoxin MII analog H9A; L15A], the ACh response, percentage of control, at 1 µM MII[H9A; L15A] in assay [1] is 101 % of control; in assay [2] it was 103 % of control; in assay [3] it was 100 % of control; in assay [4], 95.9 % of control; in assay [5] it was 100 % of control. For the same molecule, the ACh response, percentage of control, at 10 µM MII[H9A; L15A] was 98.5 % of control in assay [1]; 102 % of control in assay [2]; 61.4 % of control in assay [3]; 96.7 % of control in assay [4]; 99 % of control in assay [5]. The same molecule displayed a Ki in [6] of 3.3 nM.
Take GCCSNPVCALEHSNLC (modifications not checked) [α-Conotoxin MII analog H9A]: the ACh-evoked current, % of control, at 10 µM peptide in assay [1] is 106 % of control. In assay [7], the IC50, block of ACh-induced current in X. laevis oocytes came out at 59 nM; the IC50 Rat α3β2, functional block of ACh-induced current turned out to be 59 nM; the Ratio: IC50 α3β2/IC50 α6/α3β2β3 is 74.7. In assay [6], the Ki came to 1.1 nM.
In assay [8], GCCSNPACHLEHSNLC (modifications not checked) [α-Conotoxin MII analog V7A] gave an IC50, block of ACh-induced current in X. laevis oocytes of 10.6 nM. Moreover, the Ratio: IC50 α3β2/IC50 α6/α3β2β3 in assay [7] was determined as 0.421.
With GCCSNPVCHLAHSNLC (modifications not checked) [α-Conotoxin MII analog E11A], the Ratio: nAChR subtype IC50/α6/α3β2β3 IC50 in assay [9] is 40.3; in [10] it was 13100; in [7], 54.5; in assay [2], > 62500; in [11], 0.962; in assay [3], 6570. In addition, the Ratio: nAChR subtype IC50/α6/α3β2β3 IC50 in assay [4] and in [5] was > 62500 in each case. Moreover, the IC50, block of ACh-induced current in X. laevis oocytes in assay [10] is 2100 nM; in [2], > 10000 nM; in assay [3], 1050 nM; in assay [4], > 10000 nM; in assay [5], > 10000 nM. In addition, the IC50 Rat α3β2, functional block of ACh-induced current in assay [7] stood at 8.7 nM. Moreover, the Ratio: IC50 α3β2/IC50 α6/α3β2β3 in [7] was 54.5. Moreover, the inhibition constant (Ki) in assay [6] was determined as 0.27 nM.
For the molecule GCCSNPVCHLEHSALC (modifications not checked) [α-Conotoxin MII analog N14A], in [8], the IC50, block of ACh-induced current in X. laevis oocytes was 1.06 nM and the t1/2 for recovery from toxin block is > 25 min. Further, the Ratio: IC50 α3β2/IC50 α6/α3β2β3 in [7] was determined as 24.2.
As to GCCSNPVCHLEHANLC (modifications not checked) [α-Conotoxin MII analog S13A], the t1/2 for recovery from toxin block in [8] is > 25 min. For the same molecule, the Ratio: IC50 α3β2/IC50 α6/α3β2β3 in [7] was 3.85.
GCCSNPVCHLEASNLC (modifications not checked) [α-Conotoxin MII analog H12A] gave an IC50, block of ACh-induced current in X. laevis oocytes in assay [8] of 604 nM. Moreover, the Ratio: IC50 α3β2/IC50 α6/α3β2β3 in [7] came out at 7.72.
As for GCCSNAVCHLEHSNLC (modifications not checked) [α-Conotoxin MII analog P6A], the Ratio: IC50 α3β2/IC50 α6/α3β2β3 in assay [7] was 17.5.
GCCANPVCHLEHSNLC (modifications not checked) [α-Conotoxin MII analog S4A]: in [8], the t1/2 for recovery from toxin block was > 25 min. Moreover, the Ratio: IC50 α3β2/IC50 α6/α3β2β3 in assay [7] is 21.6.
Take GCCSAPVCHLEHSNLC (modifications not checked) [α-Conotoxin MII analog N5A]: the Ratio: IC50 α3β2/IC50 α6/α3β2β3 in assay [7] is > 12.6.
Turning to GCCSNPVCHLAHSNAC (modifications not checked) [α-Conotoxin MII analog E11A; L15A], in [7], the IC50, block of ACh-induced current in X. laevis oocytes is 50.1 nM and the Ratio: IC50 α3β2/IC50 α6/α3β2β3 is 121.
As for GCCANPVCALEHSNLC (modifications not checked) [α-Conotoxin MII analog S4A; H9A], in assay [7], the IC50, block of ACh-induced current in X. laevis oocytes worked out at 207 nM and the Ratio: IC50 α3β2/IC50 α6/α3β2β3 stood at 105.
On to GCCSNPVCHLEHSNAC (modifications not checked) [α-Conotoxin MII analog L15A], for which the ACh-evoked current, % of control, at 10 µM peptide in assay [1] is 102 % of control. For the same molecule, in assay [7], the IC50 Rat α3β2, functional block of ACh-induced current was found to be 34 nM and the Ratio: IC50 α3β2/IC50 α6/α3β2β3 is 37.2. The inhibitory constant (Ki) in assay [6] came out at 0.3 nM.
Turning to GCCSNPVCHAEHSNAC (modifications not checked) [α-Conotoxin MII analog L10A; L15A], the IC50, block of ACh-induced current in X. laevis oocytes in assay [8] was 1.8 nM. For the same molecule, the Ratio: IC50 α3β2/IC50 α6/α3β2β3 in [7] is 9.56.
In the case of GCCSNPVCHAEHSNLC (modifications not checked) [α-Conotoxin MII analog L10A], the t1/2 for recovery from toxin block in [8] was > 25 min. Further, the Ratio: IC50 α3β2/IC50 α6/α3β2β3 in assay [7] came out at 3.05.
